Measured values from several laboratories, pooled; numbers as filed in NIAID ChemDB.

All rows: toxicity to cultured cells; cells: CEM; read-out: CC50

Rows are shuffled and stem from different studies.

compound	method	result
O=C(CN1c2c(-c3ccccc3)n[nH]c2-c2ccccc2S1(=O)=O)N/N=C/c1cccs1	MTS	13.9 µM
COc1ccc(/C=N/NC(=O)CN2c3c(-c4ccccc4)n[nH]c3-c3ccccc3S2(=O)=O)cc1	-	31.6 µM
CCC(C)C(NC(=O)c1ccccc1SSc1ccccc1C(=O)NC(C(=O)O)C(C)CC)C(=O)O	-	>100 µM
NC1=NNC2(C(=O)N1)c1ccccc1-c1ccccc12	-	75 µM
Nc1ccc(N=Nc2ccc(C=Cc3ccc(N=Nc4ccc(N)c5ccc(S(=O)(=O)O)cc45)cc3S(=O)(=O)O)c(S(=O)(=O)O)c2)c2cc(S(=O)(=O)O)ccc12	-	43 µM
Cc1cn([C@@H]2O[C@H](CO[Si](C)(C)C(C)(C)C)C3(O[C@H]3C(N)=O)[C@H]2O[Si](C)(C)C(C)(C)C)c(=O)[nH]c1=O	propidium iodide / flow cytometry	5 µM
CC(C)[C@@H](CCC(=O)O)NC(=O)c1ccccc1SSc1ccccc1C(=O)N[C@H](CCC(=O)O)C(C)C	-	74 µM
CC(C)(C)[Si](C)(C)OC[C@H]1O[C@@H](n2ccc(=O)[nH]c2=O)[C@H](O[Si](C)(C)C(C)(C)C)[C@@]12O[C@H]2C(N)=O	propidium iodide / flow cytometry	20 µM
C/C(=N\NC(=O)CN1c2c(-c3ccccc3)n[nH]c2-c2ccccc2S1(=O)=O)c1sccc1Cl	MTS	16.8 µM
O=C(CSC1=NNC2(C(=O)N1)c1ccccc1-c1ccccc12)NC(=S)Nc1ccccc1	-	35 µM
O=C(O)CC[C@H](NC(=O)c1ccccc1SSc1ccccc1C(=O)N[C@@H](CCC(=O)O)C(=O)O)C(=O)O	-	>100 µM
CN(C)c1ccc(/C=N/NC(=O)CN2c3c(-c4ccccc4)n[nH]c3-c3ccccc3S2(=O)=O)cc1	-	28.9 µM
Nc1c(N=Nc2ccc(-c3ccc(N=Nc4c(O)ccc5cc(S(=O)(=O)O)cc(S(=O)(=O)O)c45)cc3)cc2)c(S(=O)(=O)O)cc2cc(S(=O)(=O)O)c(N=Nc3ccccc3)c(O)c12	-	>24 µM
S=C1NNC2(C(=S)N1)c1ccccc1-c1ccccc12	-	110 µM
COc1ccc(/C=N/NC(=O)CN2c3c(-c4ccccc4)n[nH]c3-c3ccccc3S2(=O)=O)cc1OC	-	48.6 µM
Nc1c(S(=O)(=O)O)cc(S(=O)(=O)O)c2ccc(N=Nc3ccc(/C=C/c4ccc(N=Nc5ccc6c(S(=O)(=O)O)cc(S(=O)(=O)O)c(N)c6c5O)cc4S(=O)(=O)O)c(S(=O)(=O)O)c3)c(O)c12	-	67 µM
C=CCNC(=O)NC1=CSC2=NC(=O)C3(NN12)c1ccccc1-c1ccccc13	-	50 µM
Cc1cn([C@@H]2O[C@H](CO)[C@@H](CO)[C@@H]2F)c(=O)[nH]c1=O	-	≥100 µM
O=C(CN1c2c(-c3ccccc3)n[nH]c2-c2ccccc2S1(=O)=O)N/N=C/c1ccc(Cl)cc1	-	11.9 µM
CC(C)(C)[Si](C)(C)OC[C@H]1O[C@@H](n2ccc(=O)[nH]c2=O)[C@H](O[Si](C)(C)C(C)(C)C)C1(O)[C@H](N=[N+]=[N-])C(N)=O	propidium iodide / flow cytometry	20 µM
CC(=O)NS(=O)(=O)c1ccc(NC(=O)c2ccccc2SSc2ccccc2C(=O)Nc2ccc(S(=O)(=O)NC(C)=O)cc2)cc1	-	42 µM
COC(=O)/C=C1/[C@@H](O[Si](C)(C)C(C)(C)C)[C@H](n2cc(C)c(=O)[nH]c2=O)O[C@@H]1CO[Si](C)(C)C(C)(C)C	propidium iodide / flow cytometry	22 µM
O=C(O)CC(NC(=O)c1ccccc1SSc1ccccc1C(=O)NC(CC(=O)O)c1ccccc1)c1ccccc1	-	>100 µM
O=C(CN1c2c(-c3ccccc3)n[nH]c2-c2ccccc2S1(=O)=O)N/N=C/c1ccccc1F	-	15.4 µM
C/C(=N\NC(=O)CN1c2c(-c3ccccc3)n[nH]c2-c2ccccc2S1(=O)=O)c1nccs1	MTS	8.2 µM
Nc1ccc(NC(=O)c2ccccc2SSc2ccccc2C(=O)Nc2ccc(N)cc2)cc1	-	8 µM
C/C(=N\NC(=O)CN1c2c(-c3ccccc3)n[nH]c2-c2ccccc2S1(=O)=O)c1ccc(C)s1	MTS	13.8 µM
CCC[C@@H](CC(=O)O)NC(=O)c1ccccc1SSc1ccccc1C(=O)N[C@@H](CCC)CC(=O)O	-	>100 µM
CCOC(=O)CC1(O)[C@@H](CO[Si](C)(C)C(C)(C)C)O[C@@H](n2ccc(=O)[nH]c2=O)[C@@H]1O[Si](C)(C)C(C)(C)C	propidium iodide / flow cytometry	25 µM
O=[N+]([O-])c1ccc(/C=C/c2ccc(N=Nc3ccc(/C=C/c4ccc([N+](=O)[O-])cc4S(=O)(=O)O)c(S(=O)(=O)O)c3)cc2S(=O)(=O)O)c(S(=O)(=O)O)c1	-	>112 µM
NC1=NNC2(C(N)=N1)c1ccccc1-c1ccccc12	-	81 µM
O=C(CN1c2c(-c3ccccc3)n[nH]c2-c2ccccc2S1(=O)=O)N/N=C/c1cccc([N+](=O)[O-])c1	-	15.2 µM
CC(C)(C)OC(=O)NCCCC[C@H](NC(=O)c1ccccc1SSc1ccccc1C(=O)N[C@@H](CCCCNC(=O)OC(C)(C)C)C(=O)OC(C)(C)C)C(=O)OC(C)(C)C	-	23 µM
O=C(O)CCNC(=O)c1ccccc1SSc1ccccc1C(=O)NCCC(=O)O	-	>120 µM

Again, the opening 5 rows:

compound	method	result
O=C(CN1c2c(-c3ccccc3)n[nH]c2-c2ccccc2S1(=O)=O)N/N=C/c1cccs1	MTS	13.9 µM
COc1ccc(/C=N/NC(=O)CN2c3c(-c4ccccc4)n[nH]c3-c3ccccc3S2(=O)=O)cc1	-	31.6 µM
CCC(C)C(NC(=O)c1ccccc1SSc1ccccc1C(=O)NC(C(=O)O)C(C)CC)C(=O)O	-	>100 µM
NC1=NNC2(C(=O)N1)c1ccccc1-c1ccccc12	-	75 µM
Nc1ccc(N=Nc2ccc(C=Cc3ccc(N=Nc4ccc(N)c5ccc(S(=O)(=O)O)cc45)cc3S(=O)(=O)O)c(S(=O)(=O)O)c2)c2cc(S(=O)(=O)O)ccc12	-	43 µM

CCn is the concentration with n% toxicity to the cells. Blank or dashed fields: not listed here.